According to publication PMC3258218, “Assembly and proteolytic processing of mycobacterial ClpP1 and ClpP2” (BMC Biochemistry, 2011):

What was measured:
[1] = target: the molecule itself; test: SEC; processed (N-terminally truncated) ClpP1 and ClpP2 variants; data not shown
[2] = target: the molecule itself; test: SEC-MALS; SEC-TDA: Superdex 200 with triple detector array (static light scattering at 7° and 90°, refractometer, photometer, viscometer), 25 mM Tris-HCl pH 7.5, 150 mM KCl, 1 mM β-mercaptoethanol, 20°C; 200 μg loaded

| Protein | stoichiometry N [1] | stoichiometry N [2] |
| --- | --- | --- |
| ClpP2 variant starting with Tyr14, C-terminal (His)6 tag (domain or fragment, ClpP2 (Rv2460c), Mycobacterium tuberculosis H37Rv, ORF starting at Tyr14; also called ClpP2Y14; Y14) not shown | 21 |  |
| ClpP1 variant starting with Leu16, C-terminal (His)6 tag (domain or fragment, ClpP1 (Rv2461c), Mycobacterium tuberculosis H37Rv, ORF starting at Leu16 (first 15 residues absent); also called ClpP1L16; L16) not shown |  | 7 |
